Assay results published in paper PMC12609799, “Novel Dual-Coenzyme Specificity and Thermostability of Malate Dehydrogenase Identified in the Cyanobacterium Microcystis aeruginosa PCC7806” (International Journal of Molecular Sciences, 2025).

Experiments:
[1] = system: NC(=O)C1=CN([C@@H]2O[C@H](COP(=O)(O)OP(=O)(O)OC[C@H]3O[C@@H](n4cnc5c(N)ncnc54)[C@H](OP(=O)(O)O)[C@@H]3O)[C@@H](O)[C@H]2O)C=CC1; assay: purified protein; conditions: oxaloacetate reduction, 100 mM Tris-HCl pH 8.0, 25 °C, apparent, varied: cofactor
[2] = system: NC(=O)C1=CN([C@@H]2O[C@H](COP(=O)(O)OP(=O)(O)OC[C@H]3O[C@@H](n4cnc5c(N)ncnc54)[C@H](O)[C@@H]3O)[C@@H](O)[C@H]2O)C=CC1; assay: purified protein; conditions: oxaloacetate reduction, 100 mM Tris-HCl pH 8.0, 25 °C, apparent, varied: cofactor

“MaMDH (Ma7806MDH) (Microcystis aeruginosa PCC 7806SL; D44G)” was tested, and the kcat [1] was 15.6 s⁻¹ and the Km [2] was 26.160 ± 2.17 µM.

With “MaMDH (Ma7806MDH) (Microcystis aeruginosa PCC 7806SL; D44G/G48S/H47R/I45S)” the kcat [1] was 26.5 s⁻¹ and the kcat/Km [2] was 153000 M⁻¹ s⁻¹.

For “MaMDH (Ma7806MDH) (Microcystis aeruginosa PCC 7806SL; D44G/G48S/H47R/I45S/L49F/P50Q/V46E)”, the kcat [1] was 54.1 s⁻¹ and the kcat/Km [2] was 338000 M⁻¹ s⁻¹.

In the case of “MaMDH (Ma7806MDH) (Microcystis aeruginosa PCC 7806SL; D44G/G48S/I45S)”, the kcat [1] is reported as 24.3 s⁻¹ and the kcat/Km [2] is reported as 125000 M⁻¹ s⁻¹.
